Measured values from several laboratories, pooled; numbers as filed in NIAID ChemDB.

Shared fields: whole-cell or culture tests; agent: HIV-1; endpoint: EC50

Conditions beyond the fields shown may differ between rows. a–b is a range or a potency band. ECn: concentration that inhibits the pathogen or its effect by n%.

Nc1nc2c(ncn2[C@H]2C=C[C@@H](CO)O2)c(=O)o1 ; strain: IIIB ; cells: U-937/HIV-1(IIIB) + U-937 ; method: RT activity ; result: 13 µg/mL
COCc1nc(Nc2ccc(C#N)cc2)nc(Oc2c(C)cc(/C=C(\C)C#N)cc2C)c1C(=O)NCc1ccncc1 ; strain: L1001+K103N ; cells: MT4 CMV-EGFP ; result: 0.324 µM
Cc1cc(C)cc(C(=O)c2cc(Cl)ccc2OCC(=O)Nc2ccc(S(N)(=O)=O)cc2C)c1 ; strain: HXB2 ; mutations: RT-K103N V108I ; cells: HeLa + HELA CD4+ ; method: β-galactosidase ; result: <0.01 µM
CCCCCCCCCCCCCCc1ccc2ccccc2n1 ; cells: CEM-4fx ; result: 108 µM
C=C(C)[C@@H]1CC[C@]2(C(=O)NCCCCCCCC(=O)N[C@@H](CC(C)C)[C@@H](O)CC(=O)O)CC[C@]3(C)[C@H](CC[C@@H]4[C@@]5(C)CC[C@H](O)C(C)(C)[C@@H]5CC[C@]43C)[C@@H]12 ; strain: LAI ; mutations: I84S ; cells: HeLa P4 + HeLa ; method: syncytia ; result: >10 µM
Cc1ccc(NC(=O)NCCSCc2ccc(CNC(C)C)o2)cc1Cl ; cells: U1 ; method: cytopathic effect ; result: <100 µM
Cc1cc(S(N)(=O)=O)ccc1NC(=O)COc1ccc(Cl)cc1C(=O)c1cc(F)cc(C#N)c1 ; strain: HXB2 ; mutations: RT-Y181C ; cells: HeLa + HELA CD4+ ; method: β-galactosidase ; result: <0.01 µM
C(=C\c1ccc2ccccc2n1)/c1ccc2ccccc2n1 ; cells: CEM-4fx ; result: >300 µM
COCc1nc(Nc2ccc(C#N)cc2)nc(Nc2c(C)cc(/C=C(\C)C#N)cc2C)c1C(=O)NCc1ccncc1 ; strain: MDR ; cells: MT4 CMV-EGFP ; result: 0.155 µM
C=C(C)[C@@H]1CC[C@]2(C(=O)NCCCCCCCCC(=O)N[C@H](CCC(N)=O)C(=O)OC)CC[C@]3(C)[C@H](CC[C@@H]4[C@@]5(C)CC[C@H](OC(=O)CC(C)(C)C(=O)O)C(C)(C)[C@@H]5CC[C@]43C)[C@@H]12 ; strain: NL4-3 ; method: absorbance ; result: 0.0125 µM
COCc1nc(Nc2ccc(C#N)cc2)nc(Nc2c(C)cc(/C=C/C#N)cc2C)c1C(=O)NCCN1CCOCC1 ; strain: K103N+Y101C ; cells: MT4 CMV-EGFP ; result: 0.0794 µM
C1CC(NC2=NCCN2)CCC(NC2=NCCN2)C1 ; strain: NL4-3 ; cells: HEK 293 ; method: entry / fluorescence ; result: 1.85 µM
O=C1Nc2ccc(F)c(F)c2C(C#Cc2ccccn2)(C(F)(F)F)O1 ; result: <0.00678 µM
CC(=O)OC1=CC(C)(C)Oc2c(CC=C(C)C)cc(O)cc21 ; cells: HeLa + C8166 ; method: MTT ; result: 78.2 µM
BrC(Br)=Cc1ccc2ccccc2n1 ; cells: CEM-4fx ; result: 3.3 µM
O=C1Nc2ccc(F)c(F)c2C(C#Cc2ccsc2)(C(F)(F)F)O1 ; mutations: RT-K103N ; result: <0.1559 µM
COCc1nc(Nc2ccc(C#N)cc2)nc(Nc2c(C)cc(/C=C/C#N)cc2C)c1C(=O)NCc1cccnc1 ; strain: K103N + Y181C ; cells: MT4 CMV-EGFP ; result: 0.0132 µM
Nc1ccn([C@H]2CC[C@@H](CO)O2)c(=O)n1 ; strain: NL4-3 ; mutations: L204I ; method: β-galactosidase ; result: 0.226 µM
COC(=O)c1cc(OC)cc(O)c1C(=O)c1c(O)cc(C)c(C2=CC(C)(C)Oc3c(CC=C(C)C)cc(O)cc32)c1O ; cells: HeLa + C8166 ; method: MTT ; result: >100 µM
Cc1ccnc2c1NC(=O)c1cccnc1N2C1CC1 ; strain: MJ4 C ; cells: HEK293T ; method: luciferase ; result: 65.85 nM
Nc1nc2c(ncn2[C@@H]2O[C@H](COP(=O)(O)O)[C@@H](O)[C@H]2O)c(=O)o1 ; strain: IIIB ; cells: U-937/HIV-1(IIIB) + U-937 ; method: RT activity ; result: 21 µg/mL
C(#Cc1cnc2ccccc2c1)CCC#Cc1cnc2ccccc2c1 ; cells: CEM-4fx ; result: 135 µM
Cc1cc(S(N)(=O)=O)ccc1NC(=O)COc1ccc(Cl)cc1C(=O)c1cc(Cl)cc(C#N)c1 ; strain: HXB2 (RT-K103N G190A) Recombinant ; mutations: RT-K103N G190A ; cells: HeLa + HELA CD4+ ; method: β-galactosidase ; result: <0.01 µM
COc1cnc(-n2cnc(C)n2)c2c1c(C(=O)C(=O)N1CCN(C(=O)c3ccccc3)CC1)cn2COP(=O)(O)O ; strain: NL4-3 ; cells: U-87 ; method: luciferase ; result: 0.0024 µM
Cc1cc(Cl)cc(C(=O)c2cc(Cl)ccc2OCC(=O)Nc2ccc(S(N)(=O)=O)cc2C)c1 ; strain: HXB2 ; mutations: RT-K103N ; cells: HeLa + HELA CD4+ ; method: β-galactosidase ; result: 0.101–1 µM
COC(=O)[C@H](C)NP(=O)(OC[C@@H]1C=C[C@H](n2cc(C)c(=O)[nH]c2=O)O1)Oc1ccccc1 ; strain: IIIB ; cells: CEM + CEM/O ; result: 0.085 µM
Cc1cc(OCCCS(N)(=O)=O)ccc1NC(=O)COc1ccc(Cl)cc1C(=O)c1cc(F)cc(C(F)(F)F)c1 ; strain: HXB2 ; mutations: RT-V108I ; cells: HeLa + HELA CD4+ ; method: β-galactosidase ; result: <0.01 µM
O=C1Nc2ccc(F)cc2C(C#Cc2ccccn2)(C(F)(F)F)O1 ; result: <0.01219 µM
CCCc1ccc2ccccc2n1 ; cells: CEM-4fx ; result: 78 µM
COCc1nc(Nc2ccc(C#N)cc2)nc(Nc2c(C)cc(/C=C/C#N)cc2C)c1C(=O)NCC(OC)OC ; strain: K103N+Y101C ; cells: MT4 CMV-EGFP ; result: 0.0141 µM
CS(=O)(=O)Nc1ccc(NC(=O)COc2ccc(Cl)cc2C(=O)c2ccccc2)cc1 ; strain: HXB2 ; mutations: RT-K103N ; cells: HeLa + HELA CD4+ ; method: β-galactosidase ; result: 0.011–0.1 µM
COCc1nc(Nc2ccc(C#N)cc2)nc(Nc2c(C)cc(/C=C/C#N)cc2C)c1C(=O)NCCc1ccc(S(N)(=O)=O)cc1 ; strain: K103N+Y101C ; cells: MT4 CMV-EGFP ; result: 0.0724 µM
C1CCC(NC2=NCCN2)CCCCC(NC2=NCCN2)C1 ; strain: NL4-3 ; cells: HEK 293 ; method: entry / fluorescence ; result: 0.47 µM
Cc1occc1C(=S)Nc1ccc(Cl)c(/C=N/OC(C)(C)C)c1 ; strain: NL4-3 ; mutations: RT-L100I ; cells: CEM + CEM-SS ; method: cytopathic effect / XTT ; result: 2.2 µM
Cc1cc(S(N)(=O)=O)ccc1NC(=O)COc1ccc(Cl)cc1C(=O)c1cc(F)cc(C(F)(F)F)c1 ; strain: HXB2 ; mutations: RT-V106A ; cells: HeLa + HELA CD4+ ; method: β-galactosidase ; result: 0.011–0.1 µM
Cc1occc1C(=S)Nc1ccc(Cl)c(C(=O)OCC2CC2)c1 ; strain: RF ; cells: CEM + CEM-SS ; method: cytopathic effect / XTT ; result: 0.022 µM
O=C(NCc1ccc(F)cc1F)c1c(NCCCCc2ccccc2)c2cccnc2n(O)c1=O ; mutations: N155H ; cells: HOS ; method: luciferase ; setting: pseudotyped ; result: 0.166 µM

A second listing of 4 rows from above:

{"compound": "O=C(NCc1ccc(F)cc1F)c1c(NCCCCc2ccccc2)c2cccnc2n(O)c1=O", "mutations": "N155H", "cells": "HOS", "method": "luciferase", "setting": "pseudotyped", "result": "0.166 µM"}
{"compound": "COCc1nc(Nc2ccc(C#N)cc2)nc(Oc2c(C)cc(/C=C(\\C)C#N)cc2C)c1C(=O)NCc1ccncc1", "strain": "L1001+K103N", "cells": "MT4 CMV-EGFP", "result": "0.324 µM"}
{"compound": "COC(=O)c1cc(OC)cc(O)c1C(=O)c1c(O)cc(C)c(C2=CC(C)(C)Oc3c(CC=C(C)C)cc(O)cc32)c1O", "cells": "HeLa + C8166", "method": "MTT", "result": ">100 µM"}
{"compound": "COc1cnc(-n2cnc(C)n2)c2c1c(C(=O)C(=O)N1CCN(C(=O)c3ccccc3)CC1)cn2COP(=O)(O)O", "strain": "NL4-3", "cells": "U-87", "method": "luciferase", "result": "0.0024 µM"}